The exact form of at least one protein or probe is not confirmed. Results from cells or extracts need not show a direct contact. For part of these data: Where a protein sequence is shown, tags need not be part of it.
Legend:
Test in all cases: EMSA supershift
Nrf2 (Mus musculus) = molecular target: T1, Nrf2 (Mus musculus) (UniProt Q60795); conditions: OMV-treated BM-derived DC nuclear extract, 6 h, signal lost with anti-Nrf2, suppressed by excess (100-fold) cold probe; EMSA: 5 ug nuclear extract, 30 min, room temperature, Promega protocol, 5% polyacrylamide gel; salt and pH not given; protein in an extract; label: 32P (gamma-32P), unlabeled as cold competitor
T1 sequence (looked up, limits assumed): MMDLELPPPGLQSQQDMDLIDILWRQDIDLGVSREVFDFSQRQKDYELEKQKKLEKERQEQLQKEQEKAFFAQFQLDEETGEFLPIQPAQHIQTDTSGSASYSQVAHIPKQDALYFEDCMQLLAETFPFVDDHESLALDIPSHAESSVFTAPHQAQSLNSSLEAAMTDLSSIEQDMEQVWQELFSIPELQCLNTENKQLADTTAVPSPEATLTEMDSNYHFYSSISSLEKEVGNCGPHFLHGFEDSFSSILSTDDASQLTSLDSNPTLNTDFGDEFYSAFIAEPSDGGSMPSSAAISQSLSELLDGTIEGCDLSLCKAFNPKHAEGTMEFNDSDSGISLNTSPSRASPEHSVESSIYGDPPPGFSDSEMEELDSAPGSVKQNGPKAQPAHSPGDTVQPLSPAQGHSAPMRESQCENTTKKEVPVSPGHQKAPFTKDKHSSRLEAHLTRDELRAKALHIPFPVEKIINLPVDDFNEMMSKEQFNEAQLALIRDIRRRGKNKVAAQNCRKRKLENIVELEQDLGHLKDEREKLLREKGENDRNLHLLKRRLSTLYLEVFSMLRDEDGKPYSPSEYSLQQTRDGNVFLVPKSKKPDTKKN

NF-kB p65 + NF-kB p50 = conditions: OMV-treated BM-derived DC nuclear extract, 1 h, anti-p65 and anti-p50 shift; EMSA: 5 ug nuclear extract, 30 min, room temperature, Promega protocol, 5% polyacrylamide gel; salt and pH not given; protein in an extract; label: 32P (gamma-32P)
c-Jun + c-Fos = conditions: OMV-treated BM-derived DC nuclear extract, 1 h, signal lost with anti-c-Jun and anti-c-Fos; EMSA: 5 ug nuclear extract, 30 min, room temperature, Promega protocol, 5% polyacrylamide gel; salt and pH not given; protein in an extract; label: 32P (gamma-32P)

Sequence: TGGGGAACCTGTGCTGAGTCACTGGAG (double strand) [Nrf2 probe]
- binding result (Nrf2 (Mus musculus)): binds

Sequence: AGTTGAGGGGACTTTCCCAGGC (double strand) [NF-kB probe]
- binding result (NF-kB p65 + NF-kB p50): binds

Sequence: CGCTTGATGACTCAGCCGGAA (double strand) [AP-1 probe]
- binding result (c-Jun + c-Fos): binds

Source: publication PMC4962631
